Results taken from the supplement of paper PMC9931576.
Positions count from the first letter of the chain named. Human monoclonal antibodies against the spike receptor-binding domain (heavy:light variable regions). IC50 against pseudoviruses bearing the spike of naturally observed variants; lower = stronger; >10 µg/ml means not reached at the top dose. No active / inactive call. The stated detection limit is 0.0005 µg/ml; values near or below 0.001 µg/ml lie at the floor of the assay.

B1: BD56-472 (protein)
chain 1: QVQLVQSGAEVKKPGSSVKVSCKASGGTFSSYAFSWVRQAPGQGLEWMGGIIPPFTTANYAQKFQGRVTITADESTSTAYMELSSLRSEDTAVYFCARVWFGELWGPHWYFDLWGRGTLITVSS
chain 2: DIQMTQSPSSLSASIGDRVTITCRASQSVSSYLNWYQQKPGKAPKLLIYAASSLQSGVPSRFSGSGSGTDFTLTISSLQPEDFATYYCQQSYSTTFGQGTKVEIK
B2: BD56-464 (protein)
chain 1: QVQLEQSGAEVKKPGTSVKVSCKASRGTLSTYAISWVRQAPGQGLDWLGRIIPMLGVTNYAQNFQDRVTITADKSTSTVYMELSTLTSEDTAVYYCSIDPEFTALTGGEFTQNFDFWGRGTLVTVSS
chain 2: EIVLTQSPGPLSLSPGERATLSCRASQSIRNTYFAWHQHKPGQTPRLLIYGASTRATGIPDRFSGSGSGTDFTLTISRLEPEDFAVYYCQQYDSSPWTFGQGTKVDIK
B3: DH1129 (protein)
chain 1: EVQLVESGGDLVQPGGSLRLSCAASGFTFSSYAMSWVRQAPGKGLEWVSTISTTGGDTYYADSVKGRFTISRDNSKNKLNLQMNSLRAEDTAVYSCARHNELDYWGQGTLVTVSS
chain 2: EIVLTQSPDFQSVTPNEKVTITCRASQSIGSSLHWYQQKPDQSPKLLIKYASQSFSGVPSRFSGSGSGTDFTLTINSLEAEDGATYYCHQSSSFPRTFGQGTKVEIK
B4: BD56-483 (protein)
chain 1: EVQLVESGGGLVQPGGSRRLSCGVSGFIFSDYEMNWVRQAPGKGLEWLAYISTSGNSKNYADSVKGRFTISRDNAKNSVYLQMNSLSAEDTAVYYCARAFYSYGSGTLDFWGQGTLVSVSS
chain 2: DIQMTQSPSSLSASVGDRVTITCRASQTIVNFFNWYQQKPGRAPKLLIYGVSSLQSGVPSRFSGSGSGTDFTLTISSLQPEDFATYYCQQSYSAPPTFGQGTKVEV
B5: DH1045 (protein)
chain 1: QLQLQESGPGLVKPSETLSLTCTVSGGSISSSGYYWGWIRQPPGKGLEWIGTIYYGGSTYYSPSLKSRVTISVDTSKNQFSLKLSSVTAADTAVYYCASQQWLRGNFDYWGQGTLVTVSS
chain 2: NFMLTQPHSVSESPGKTVTISCTGSSGSIASNYVQWYQQRPGSAPTTVIYEDNQRPSGVPDRFSGSIDSSSNSASLTISGLKTEDEADYYCQSYDSSTYWVFGGGTKLTVL
B6: BD56-455 (protein)
chain 1: EVQLVESGGGLVQPGRSLRLSCAASGFSFEDYAMHWVRQAPGKGLEWVSGISWNGGTIGYADSVKGRFTISRDNAKNSLFLHMRSLRAEDTALYYCAKDIQGVTTVRGVIIEDSYGMDVWGQGTTVTVSS
chain 2: QSALTQPASVSGSPGQSITISCTGTSSDVGAYNYVSWYQQHPGKAPKLMIYDVSSRPSGVSNRFSGSKSGNTASLTISGLQADDEADYYCSSYTGSSTLVFGGGTKLTVL
B7: DH1180 (protein)
chain 1: QVQLVESGGGVVQPGRSLRLSCAASGFTFSSYAMHWVRQAPDKGLEWVAVISYDGSNKYYADSVKGRFTISRDNSKNTLYLQLNSLRTEDTAVYYCAREDYYDSSGSLDYWGQGTLVTVSS
chain 2: B6 chain 2 with A31G, S55N, D83E, Y89F, G95S, L99W
B8: BD56-476 (protein)
chain 1: EVQLVESGGGLVKPGGSLRLSCAASGFTFSSYSMNWVRQAPGKGLEWVSSISSGSSYIDYADSVKGRFTISRDNAKNSLYLQMNSLRAEDTAVYYCARDQYPHEYSSGWYDYYYYYGMDVWGQGTTVTVSS
chain 2: QSVLTQPPSASGTPGQRVTISCSGSSSNLGSNYVYWYQQLPGTAPKLLIYRNNQRPSGVPDRFSGSKSDTSASLAISGLRSEDEADYYCAAWDDSLSGWVFGGGTKLTVL
B9: BD56-460 (protein)
chain 1: EVHLVESGGGLIQPGGSLRLSCAASEFIVSSNYMTWVRQAPGKGLEWVSLIYPGGSTFYADSVKGRFTISRDNSKNTLYLQMNSLRVEDTAVYYCARGDGSDLPFDFWGQGTLVTVSS
chain 2: QSALTQPASVSGSPGQSITISCTGTSSDLGGYHYVSWYQQHPGKAPKLMIFEVNNRPSGVSTRFSGSKSGNTASLTISGLQPEDEADYYCSSYASTTTHVLFGGGTKLTVL
B10: BD56-487 (protein)
chain 1: EVQVVESGGGLVQPGRSLRLSCVASGFTFEDYAMHWVRQSPGKGLEWVSGVSWNSGIIGYADSVKGRFIISRDNAKNSLYLYMSGLTTEDTAVYYCGKIGGYSAYDIRSFSDGMDVWGQGTTVTVSS
chain 2: QSVLTQPPSASGTPGQRVAISCSGSTSNIGSNAVNWYQQLPGTAPKLLIYSDNHRPSGVPDRFSGSKSGTSASLAISGLQSEDEADYYCATWDDSLNAHYVFGTGTKVTVL
B11: BD56-508 (protein)
chain 1: QMQLVQSGPEVKKPGTSVKVSCKASVFTFTVSSVQWVRQARGQGLEWIGWIVVGSGETDYSQKFQERVTITRDMSTGIVYMELTSLRPEDTAVYFCAAPHCNPTTCYDGFDMWGQGTMVAVSS
chain 2: EIVLTQSPGTLSLSPGERATLSCRASQSVRSSHLAWYQQKPGQAPRLFIYGASSRATGIPDRFSGSRSGTDFTLTISRLEPEDFAVYYCQQYDTSPWTFGQGTKLEIK
B12: BD56-488 (protein)
chain 1: EVQLVESGGGLVQPGRSLTLSCGASGFTFEDYAMHWVRQAPGKGLEWVSGSSWNSGTIGYADSVTGRFIISRDNAKNSLYLHMRNMRAEDTAIYYCAKALGWRDEYSFDYWGQGTLVTVSS
chain 2: QSALTQPASVSGSPGQSISISCTGTSSDVGGYNYVSWYQQHPDKAPKLMIYDVTDRPSGVSDRFSGSKSGNTASLTISGLQAEDEADYYCSSYTINSTLVFGTGTKVTVL
B13: BD56-451 (protein)
chain 1: EVQLVESGGGLVQPGRSLRLSCAASGYTFDEYAMHWVRQAPGKGLEWVSGISWNSGVIGYADSVKGRFIISRDNAKNSLYLQMNSLRAEDTALYYCAKGGQVHYNILTGYYDDEGGFDYWGQGTLVTVSS
chain 2: EIVMTQSPATLSVSPGERATLSCRASQSVSSNVAWYQQKPGQAPRLLIYGASTRATGIPARFSGSGSGTEFTLTISSLQSEDFAVYYCQQYNNGLYTFGQGTKLEI

What was measured:
Assay in all cases: pseudovirus neutralization IC50; higher = weaker neutralization
[1] = target: SARS-CoV-2 Omicron BA.1 spike pseudovirus
Protocol: (§1)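 Single-round VSV luciferase pseudovirus mixed with antibody dilutions for 1 h and put on Huh-7 cells for about a day; IC50 from the dose curve.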

[2] = target: SARS-CoV-2 Omicron BA.2 spike pseudovirus
Protocol: as §1

[3] = target: SARS-CoV-2 Omicron BA.2.75 spike pseudovirus
Protocol: as §1

[4] = target: SARS-CoV-2 Omicron BA.5 spike pseudovirus
Protocol: as §1

[5] = target: SARS-CoV-2 Omicron BQ.1.1 spike pseudovirus
Protocol: as §1

[6] = target: SARS-CoV-2 Omicron XBB spike pseudovirus
Protocol: as §1

[7] = target: SARS-CoV-2 early D614G spike pseudovirus
Protocol: as §1

Binder | pseudovirus neutralization IC50 [1] | pseudovirus neutralization IC50 [2] | pseudovirus neutralization IC50 [3] | pseudovirus neutralization IC50 [4] | pseudovirus neutralization IC50 [5] | pseudovirus neutralization IC50 [6] | pseudovirus neutralization IC50 [7]
B1 | 0.075 µg/mL | 0.0649 µg/mL | 0.0401 µg/mL | > 10 µg/mL | > 10 µg/mL | > 10 µg/mL | 0.00712 µg/mL
B2 | 0.763 µg/mL | 0.00399 µg/mL | 0.0635 µg/mL | > 10 µg/mL | > 10 µg/mL | > 10 µg/mL | 0.0016 µg/mL
B3 | > 10 µg/mL | > 10 µg/mL | > 10 µg/mL | > 10 µg/mL | > 10 µg/mL | > 10 µg/mL | > 10 µg/mL
B4 | 0.00105 µg/mL | 0.000837 µg/mL | 0.000705 µg/mL | > 10 µg/mL | > 10 µg/mL | > 10 µg/mL | 0.00277 µg/mL
B5 | > 10 µg/mL | > 10 µg/mL | > 10 µg/mL | > 10 µg/mL | > 10 µg/mL | > 10 µg/mL | 0.681 µg/mL
B6 | 0.157 µg/mL | 0.0872 µg/mL | 0.0963 µg/mL | 3.8 µg/mL |  |  | 0.0165 µg/mL
B7 | > 10 µg/mL | > 10 µg/mL | > 10 µg/mL | > 10 µg/mL | > 10 µg/mL | > 10 µg/mL | > 10 µg/mL
B8 | 0.334 µg/mL | 0.155 µg/mL | 0.36 µg/mL | 4.56 µg/mL | > 10 µg/mL | > 10 µg/mL | 0.0383 µg/mL
B9 | 0.0186 µg/mL | 0.0139 µg/mL | 3.7 µg/mL | 1.82 µg/mL | > 10 µg/mL | > 10 µg/mL | 0.00321 µg/mL
B10 | 0.00808 µg/mL | 0.00626 µg/mL | 0.0187 µg/mL | 2.23 µg/mL | > 10 µg/mL | 0.0737 µg/mL | 0.0705 µg/mL
B11 | 0.001 µg/mL | 0.00157 µg/mL | 0.00124 µg/mL | 0.118 µg/mL | 0.276 µg/mL | > 10 µg/mL | 0.00485 µg/mL
B12 | 0.012 µg/mL | 0.00989 µg/mL | 0.0201 µg/mL | 1.35 µg/mL | > 10 µg/mL | 7.47 µg/mL | 0.00822 µg/mL
B13 | 0.104 µg/mL | 0.0633 µg/mL | 0.117 µg/mL | 1.49 µg/mL | > 10 µg/mL | > 10 µg/mL | 0.114 µg/mL
